Test results: patent US20240109955A1 (published 2024)

Columns and labels:
Assay in all cases: cell-based or functional assay
[1] = target: SARS-CoV-2 Omicron BQ.1 spike protein (SARS-CoV-2, UniProt P0DTC2 14-1273)
[2] = target: SARS-CoV-2 spike protein, Delta variant (B.1.617.2) (SARS-CoV-2, UniProt P0DTC2 14-1273)
[3] = target: SARS-CoV-2 spike protein, Omicron sublineage BA.4/5 (SARS-CoV-2, UniProt P0DTC2 14-1273)
[4] = target: SARS-CoV-2 spike (S) protein, Omicron sublineage BA.2.75.2 (R346T, F486S) (SARS-CoV-2, UniProt P0DTC2)

B1: MX1025 (antibody)
chain: EIVLTQSPGTLSLSPGETATLSCRASQSFSSDLAWYQQKPGQAPRLLIYGASSRATGIPDRFSGSGSGTDFTLTISRLEPADFAVYYCQQYGSSPPVTFGGGTKVEIKGGGGSGGSGSGGGGSASGSGEVQLVESGGGLIQPGGSLRLSCAASGVIVSYNYMNWVRQAPGKGLEWVSVIYSGGSTFYADSVRGRFTISRDNSKNTLYLQMNSLRAEDTAVYYCARDLGPAGAFDIWGLGTMVTVSSASGGSGDKTHTCPPCPAPELLGGPSVFLFPPKPKDTLMISRTPEVTCVVVDVSHEDPEVKFNWYVDGVEVHNAKTKPREEQYNSYVVSVLTVLHQDWLNGKEYKCKVSNKALPAPIEKTISKAKGQPREPQVYTLPPSRDELTKNQVSLTCLVKGFYPSDIAVEWESNGQPENNYKTTPPVLDSDGSFFKKLTVDKSRWQQGNVFSCSVLHEALHSHYTQKSLSLSPG
- IC50, pseudovirus neutralization [1]: 0.0298 µg/mL
- IC80, pseudovirus neutralization [1]: 0.043 µg/mL

B2: MX829 (bispecific antibody)
chain: DIQMTQSPSSVSASVGDRVIITCRASQGISSWLAWYQQKPGKAPKVLIYDASSLQSGVPSRFSGSGYGTDFTLTISSLQPEDSATYYCQQAKSFPITFGQGTRLEIKGGSSGEIVLTQSPGTLSLSPGERATLSCRASQSVSSSYLAWYQQKPGQAPRLLIYSASSRATGIPDRFSGSGSGTDFTLTISRLEPEDFAVYFCQQYVGLTGWTFGQGTKVEIKGGGGSGGSGSGGGGSASGSGQMQLVQSGPEVKKPGTSVKVSCKASGFTFTSSAVQWVRQRQRLEWIGWIVVGSGNTNYAQKFQERVTITRDMSTSTAYMELSSLRSEDTAVYYCAAPNCSNVVCYDGFDIWGQGTMVTVSSGGSSGQVQLVESGGGVVQPGRSLRLSCAASGFTFSSYAFHWVRQAPGKGLEWVAVISYDGSNQYYADSVKGRFTISRDNSKNTLYLQMNSLRADDTAVYYCARDLAIAVAGTWHYYNGMDVWGQGTTVTVSSASGGSGDKTHTCPPCPAPELLGGPSVFLFPPKPKDTLMISRTPEVTCVVVDVSHEDPEVKFNWYVDGVEVHNAKTKPREEQYNSYVVSVLTVLHQDWLNGKEYKCKVSNKALPAPIEKTISKAKGQPREPQVYTLPPSRDELTKNQVSLTCLVKGFYPSDIAVEWESNGQPENNYKTTPPVLDSDGSFFKKLTVDKSRWQQGNVFSCSVLHEALHSHYTQKSLSLSPG
- IC50, pseudovirus neutralization [2]: 29.6 nM
- IC80, pseudovirus neutralization [2]: 97.8 nM
- IC50, pseudovirus neutralization [3]: 11.5 nM
- IC80, pseudovirus neutralization [3]: 34.7 nM

B3: MX831 (bispecific antibody)
chain: B2 chain with V205G
- IC50, pseudovirus neutralization [4]: > 10000 nM
- IC80, pseudovirus neutralization [4]: > 10000 nM

B4: MX1019 (antibody)
chain: EIVMTQSPAILSVSPGERATLSCRASQSVAINLAWYQQKPGQAPRLLIYAASSRATGIPGRFSGSGSETNFTLTISSLQSGDFAVYYCQQYITWPPSYTFGQGTKLEIKGGGGSGGSGSGGGGSASGSGEVQLVESGGALIQPGGSLRLSCAASGIIVSANYMSWVRQAPGKGLEWVSVIYSGGSTFYADSVKGRFTISRDNSKNTLYLEMNSLRAEDTAVYYCARDAPILGVSDWGQGTLVTVSSASGGSGDKTHTCPPCPAPELLGGPSVFLFPPKPKDTLMISRTPEVTCVVVDVSHEDPEVKFNWYVDGVEVHNAKTKPREEQYNSYVVSVLTVLHQDWLNGKEYKCKVSNKALPAPIEKTISKAKGQPREPQVYTLPPSRDELTKNQVSLTCLVKGFYPSDIAVEWESNGQPENNYKTTPPVLDSDGSFFKKLTVDKSRWQQGNVFSCSVLHEALHSHYTQKSLSLSPG
- IC50, pseudovirus neutralization [1]: 0.0241 µg/mL
- IC80, pseudovirus neutralization [1]: 0.0611 µg/mL

B5: MX828 (bispecific antibody)
chain: QTVVTQEPSFSVSPGGTVTLTCGLSSGSVSTAYFPSWYQQTPGQAPRTLIYGTNTRSSGVPDRFSGSILGNKAALTITGAQADDESDYYCVLYMGRGIVVFGGGTKLTVLGGSSGEIVLTQSPGTLSLSPGERATLSCRASQSVSSSYLAWYQQKPGQAPRLLIYSASSRATGIPDRFSGSGSGTDFTLTISRLEPEDFAVYFCQQYVGLTGWTFGQGTKVEIKGGGGSGGSGSGGGGSASGSGQMQLVQSGPEVKKPGTSVKVSCKASGFTFTSSAVQWVRQRQRLEWIGWIVVGSGNTNYAQKFQERVTITRDMSTSTAYMELSSLRSEDTAVYYCAAPNCSNVVCYDGFDIWGQGTMVTVSSGGSSGQVQLVESGGGVVQPGRSLRLSCAASGFTLSSYGMHWVRQAPGKGLEWVAVISYDGSNKYYVDSVKGRFTISRDNSKNTLYLQMNSLRAEDTAVYYCRWAYWELLPDYYYGMDVWGQGTTVTVSSASGGSGDKTHTCPPCPAPELLGGPSVFLFPPKPKDTLMISRTPEVTCVVVDVSHEDPEVKFNWYVDGVEVHNAKTKPREEQYNSYVVSVLTVLHQDWLNGKEYKCKVSNKALPAPIEKTISKAKGQPREPQVYTLPPSRDELTKNQVSLTCLVKGFYPSDIAVEWESNGQPENNYKTTPPVLDSDGSFFKKLTVDKSRWQQGNVFSCSVLHEALHSHYTQKSLSLSPG
- IC50, pseudovirus neutralization [2]: 74.8 nM
- IC80, pseudovirus neutralization [2]: 173 nM
- IC50, pseudovirus neutralization [3]: 1010 nM
- IC80, pseudovirus neutralization [3]: 5320 nM

B6: MX830 + MX831 (other)
chain 1: B5 chain with V208G
chain 2: B2 chain with V205G
- IC50, pseudovirus neutralization [4]: 3710 nM
- IC80, pseudovirus neutralization [4]: 9720 nM

B7: MX830 (bispecific antibody)
chain: B5 chain with V208G
- IC50, pseudovirus neutralization [4]: 7050 nM
- IC80, pseudovirus neutralization [4]: > 10000 nM

B8: MX828 + MX829 (other)
chain 1: B5 chain
chain 2: B2 chain
- IC50, pseudovirus neutralization [4]: 8520 nM
- IC80, pseudovirus neutralization [4]: > 10000 nM

Changes are numbered by the printed parent chain.
